Source: patent US9815889B2, “Antibodies for prevention and treatment of diseases caused by clostridium difficile” (dated 2017)

System: pooled sera of mice immunized with conjugate
Assay: Deletion sequence microarray: IgG of pooled sera of immunized mice against PS-I substructures
Conditions: for Antibody response of sera against oligoglucose substructures: any of the three groups (no adjuvant, Freund's, Alum); for IgG antibody response of sera against PS-I pentasaccharide and deletion sequences: sera of mice immunized with Alum adjuvant

Compound	Antibody response of sera against oligoglucose substructures	IgG antibody response of sera against PS-I pentasaccharide and deletion sequences
NCCCCCO[C@H]1O[C@H](CO)[C@@H](O)[C@H](O)[C@H]1OC1O[C@H](CO)[C@@H](O)[C@H](O)[C@H]1O (some centres unmarked)	No antibody response	–
C[C@@H]1O[C@@H](O[C@@H]2[C@@H](O)[C@H](OCCCCCN)O[C@H](CO)[C@H]2O)[C@H](O)[C@H](O)[C@H]1O	–	lower titers
NCCCCCO[C@H]1O[C@H](CO)[C@@H](O)[C@H](O)[C@H]1O[C@H]1O[C@H](CO)[C@@H](O[C@@H]2O[C@H](CO)[C@@H](O)[C@H](O)[C@H]2O)[C@H](O)[C@H]1O	No antibody response	–
C[C@@H]1O[C@@H](O[C@@H]2[C@@H](O)[C@H](O[C@H]3[C@H](O)[C@@H](O)[C@@H](OCCCCCN)O[C@@H]3CO)O[C@H](CO)[C@H]2O)[C@H](O)[C@H](O)[C@H]1O	–	lower titers
C[C@@H]1O[C@@H](O[C@@H]2[C@@H](O)[C@H](O[C@H]3[C@H](O[C@@H]4O[C@@H](C)[C@H](O)[C@@H](O)[C@H]4O)[C@@H](O)[C@@H](O[C@H]4[C@@H](OCCCCCN)O[C@H](CO)[C@@H](O)[C@@H]4O)O[C@@H]3CO)O[C@H](CO)[C@H]2O)[C@H](O)[C@H](O)[C@H]1O	–	more specific reactivity
